Test results as given in article PMC8809408 (Frontiers in Pharmacology, 2022).

System: pseudotyped viruses harboring glycoprotein of vesicular stomatitis virus (VSV)
Format: cell-based

| Compound | luciferase activity (infection by VSV-G pseudotyped viruses) |
| --- | --- |
| CNCCCN1c2ccccc2CCc2ccccc21 [Desipramine] | remained ineffective |
| O=c1[nH]c2ccccc2n1C1CCN(CCCC(c2ccc(F)cc2)c2ccc(F)cc2)CC1 [Pimozide] | reduced the infection |
| CN(C)CCCN1c2ccccc2Sc2ccc(Cl)cc21 [Chlorpromazine] | reduced the infection |
